Test results as given in patent US20220251151A1, “Kv1.3 blockers” (published 2022).

Columns and labels:
[1] = biological target: human Kv1.3 voltage-gated K+ channel (human), P22001; experiment: cell-based or functional assay
[2] = biological target: human Kv1.3 potassium channel (potassium voltage-gated channel subfamily A member 3, α-subunit) (human), P22001; experiment: cell-based or functional assay

B1: Compound 54 (peptide)
peptide: NMDMRCSASVECKQKCLAIGSIFGKCMNKKCKCYPR
modifications: not checked
IC50 (thallium flux, FLIPR) [1]: 0.46 nM

B2: Compound 61 (peptide)
peptide: B1 peptide with A18K, I19A
modifications: not checked
IC50 (thallium flux, FLIPR) [1]: 0.4 nM

B3: Compound 57 (peptide)
peptide: B1 peptide with A18K
modifications: not checked
IC50 (thallium flux, FLIPR) [1]: 0.11 nM

B4: Compound 5 (peptide)
peptide: MDMRCSASVECKQKCLKAIGSIFGKCMNKKCKCYPR
modifications: not checked
IC50 (thallium flux, FLIPR) [1]: 0.25 nM | Potency IC50 (patch clamp) [2]: 0.38 nM

B5: Compound 6 (peptide)
peptide: DMRCSASVECKQKCLKAIGSIFGKCMNKKCKCYPR
modifications: not checked
IC50 (thallium flux, FLIPR) [1]: 0.34 nM

B6: Compound 24 (peptide)
peptide: NMDMRCSASVECKQKCLKAIGSIFGKCMNKKCKCYPRHRRK
modifications: not checked
IC50 (thallium flux, FLIPR) [1]: 0.073 nM

B7: Compound 1 (PaT1) (peptide)
peptide: QMDMRCSASVECKQKCLKAIGSIFGKCMNKKCKCYPR
modifications: not checked
IC50 (thallium flux, FLIPR) [1]: 0.24 nM

B8: Compound 60 (peptide)
peptide: B7 peptide with Q1N, I20R
modifications: not checked
IC50 (thallium flux, FLIPR) [1]: 0.035 nM

B9: Compound 51 (peptide)
peptide: B7 peptide with Q1N, L17R
modifications: not checked
IC50 (thallium flux, FLIPR) [1]: 0.11 nM | Potency IC50 (patch clamp) [2]: 0.25 nM

B10: Compound 4 (peptide)
peptide: B7 peptide with Q1N, S22R, I23G
modifications: not checked
IC50 (thallium flux, FLIPR) [1]: 0.29 nM

B11: Compound 9 (peptide)
peptide: B7 peptide with Q1N, M4V
modifications: not checked
IC50 (thallium flux, FLIPR) [1]: 0.53 nM

B12: Compound 58 (peptide)
peptide: B7 peptide with Q1N, I20Y
modifications: not checked
IC50 (thallium flux, FLIPR) [1]: 0.11 nM | Potency IC50 (patch clamp) [2]: 0.34 nM

B13: Compound 12 (peptide)
peptide: B7 peptide with Q1N, D3E
modifications: not checked
IC50 (thallium flux, FLIPR) [1]: 0.23 nM | Potency IC50 (patch clamp) [2]: 0.11 nM

B14: Compound 50 (peptide)
peptide: B7 peptide with Q1N, L17Y
modifications: not checked
IC50 (thallium flux, FLIPR) [1]: 0.16 nM | Potency IC50 (patch clamp) [2]: 0.27 nM

B15: Compound 53 (peptide)
peptide: B7 peptide with Q1N, K18Y
modifications: not checked
IC50 (thallium flux, FLIPR) [1]: 0.12 nM | Potency IC50 (patch clamp) [2]: 0.29 nM

B16: Compound 59 (peptide)
peptide: B7 peptide with Q1N, I20E
modifications: not checked
IC50 (thallium flux, FLIPR) [1]: 0.035 nM

B17: Compound 8 (peptide)
peptide: B7 peptide with Q1N, M2I
modifications: not checked
IC50 (thallium flux, FLIPR) [1]: 0.47 nM | Potency IC50 (patch clamp) [2]: 0.44 nM

B18: Compound 10 (peptide)
peptide: B7 peptide with Q1N, L17K, K18D
modifications: not checked
IC50 (thallium flux, FLIPR) [1]: 0.57 nM

B19: Compound 7 (peptide)
peptide: B7 peptide with Q1N
modifications: not checked
IC50 (thallium flux, FLIPR) [1]: 0.12 nM

B20: Compound 55 (peptide)
peptide: B7 peptide with Q1N, A19Y
modifications: not checked
IC50 (thallium flux, FLIPR) [1]: 0.12 nM | Potency IC50 (patch clamp) [2]: 0.12 nM

B21: Compound 11 (peptide)
peptide: GGNMDMRCSASVECKQKCLKAIGSIFGKCMNKKCKCYPR
modifications: not checked
IC50 (thallium flux, FLIPR) [1]: 0.3 nM

B22: Compound 13 (peptide)
peptide: B21 peptide with G1S
modifications: not checked
IC50 (thallium flux, FLIPR) [1]: 0.26 nM

Substitutions are numbered along the chain they refer to.
